Measured values taken from publication PMC10694654 (The Journal of Biological Chemistry, 2023).

By UniProt entry, the sequences of proteins in these tests, tags left out. Residues count along the entry.
UniProt P44009, 23-236: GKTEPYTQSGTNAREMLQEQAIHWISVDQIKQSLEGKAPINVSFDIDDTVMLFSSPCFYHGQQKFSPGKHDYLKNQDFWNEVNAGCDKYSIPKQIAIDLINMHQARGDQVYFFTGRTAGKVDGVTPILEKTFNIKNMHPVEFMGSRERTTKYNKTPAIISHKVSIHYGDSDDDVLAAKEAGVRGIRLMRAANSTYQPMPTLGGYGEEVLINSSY

Biological target: His6-AphAHi (Haemophilus influenzae Rd KW20) (UniProt P44009)
Experiment: EMSA
Conditions: up to 50 uM protein, DNA 5 and 20 nM, EMSA: 20 mM Tris-HCl pH 7.5, 100 mM KCl, 2 mM MgCl2, 1 mM beta-mercaptoethanol, 50 ug/ml BSA, 0.1 mg/ml salmon sperm DNA, 20 min at 37 C, 5% gel, recombinant protein, protein details: N-terminal His6, label: Cy5 at 5' ends, probe letters rebuilt from the primers and the genome

Question: Which results are given for “CGCCAATCTTTCGCTAATTCCACCGCACTTTTTAGCAAATGCCCTTGATGCATTTCAAGTTTACGTTCAAATAATTCAAAAAGTGTAAATGCATCTGCCGTTCCACCCGCAAAACCAGCAAGCACTTTGCCATTATATAAACGGCGTACTTTACGAGCATTACCTTTCATTACG (double strand) [200-bp uptake sequence dsDNA]”?
Answer: binding result (with cAMP): no binding; binding result (without cAMP): no binding

A negative result means that nothing was seen under these conditions.
